Measurements: patent publication US20240391942A1 (priority 2021, published 2024)

Key:
[1] = system: Trichomonas vaginalis ATCC30236; experiment: In vitro MIC
[2] = system: Helicobacter pylori ATCC700392; experiment: In vitro MIC (CLSI)
[3] = system: Enterococcus faecalis ATCC51575; experiment: In vitro MIC (CLSI)
[4] = system: Enterobacter cloacae WX-E. cloacae002; experiment: In vitro MIC (CLSI)
[5] = system: Peptostreptococcus anaerobius ATCC27337; experiment: In vitro MIC (CLSI)
[6] = system: Klebsiella pneumoniae WX-KP013; experiment: In vitro MIC (CLSI)
[7] = system: Neisseria gonorrhoeae 35/02; experiment: In vitro MIC (CLSI)
[8] = system: Klebsiella pneumoniae WX-KP041; experiment: In vitro MIC (CLSI)
[9] = system: Neisseria gonorrhoeae ATCC700825; experiment: In vitro MIC (CLSI)
[10] = system: Klebsiella pneumoniae WX-KP021; experiment: In vitro MIC (CLSI)
[11] = system: Helicobacter pylori ATCC700824; experiment: In vitro MIC (CLSI)
[12] = system: Helicobacter pylori ATCC43504; experiment: In vitro MIC (CLSI)
[13] = system: Streptococcus pneumoniae WX-SP001; experiment: In vitro MIC (CLSI)
[14] = system: Neisseria gonorrhoeae ATCC49226; experiment: In vitro MIC (CLSI)
[15] = system: Enterobacter cloacae WX-E. cloacae001; experiment: In vitro MIC (CLSI)
[16] = system: Propionibacterium acnes ATCC6919; experiment: In vitro MIC (CLSI)
[17] = system: Aspergillus fumigatus ATCCMYA-4609; experiment: In vitro MIC (CLSI)
[18] = system: Klebsiella pneumoniae WX-KP037; experiment: In vitro MIC (CLSI)
[19] = system: Bacterioides fragilis ATCC25285; experiment: In vitro MIC (CLSI)
[20] = system: Enterobacter cloacae WX-E. cloacae003; experiment: In vitro MIC (CLSI)
[21] = system: Streptococcus pneumoniae WX-SP002; experiment: In vitro MIC (CLSI)
[22] = system: Clostridium difficile ATCC700057; experiment: In vitro MIC (CLSI)
[23] = system: Staphylococcus epidermidis ATCC35983; experiment: In vitro MIC (CLSI)
[24] = system: Morganella morgani WX-M. morgani001; experiment: In vitro MIC (CLSI)

SMILES: O=[As]c1cc(F)c(F)c(F)c1 (stereo not shown)
- Minimum Inhibitory Concentration (MIC) [1]: 0.125 µg/mL
- Minimum Inhibitory Concentration (MIC) [2]: 0.25 µg/mL
- Minimum Inhibitory Concentration (MIC) [3]: 0.25 µg/mL
- Minimum Inhibitory Concentration (MIC) [4]: 2 µg/mL
- Minimum Inhibitory Concentration (MIC) [5]: 0.25 µg/mL
- Minimum Inhibitory Concentration (MIC) [6]: 1 µg/mL
- Minimum Inhibitory Concentration (MIC) [7]: 0.125 µg/mL
- Minimum Inhibitory Concentration (MIC) [8]: 1 µg/mL
- Minimum Inhibitory Concentration (MIC) [9]: ≤0.06 µg/mL
- Minimum Inhibitory Concentration (MIC) [10]: 0.5 µg/mL
- Minimum Inhibitory Concentration (MIC) [11]: 0.25 µg/mL
- Minimum Inhibitory Concentration (MIC) [12]: 0.25 µg/mL
- Minimum Inhibitory Concentration (MIC) [13]: 0.125 µg/mL
- Minimum Inhibitory Concentration (MIC) ([14]; Neisseria gonorrhoeae ATCC49226, first part of Table 12): 0.125 µg/mL
- Minimum Inhibitory Concentration (MIC) ([14]; Neisseria gonorrhoeae ATCC49226, last part of Table 12): 0.06 µg/mL
- Minimum Inhibitory Concentration (MIC) [15]: 0.25 µg/mL
- Minimum Inhibitory Concentration (MIC) [16]: 0.5 µg/mL
- Minimum Inhibitory Concentration (MIC) [17]: 2 µg/mL
- Minimum Inhibitory Concentration (MIC) [18]: 0.25 µg/mL
- Minimum Inhibitory Concentration (MIC) [19]: 0.25 µg/mL
- Minimum Inhibitory Concentration (MIC) [20]: 0.25 µg/mL
- Minimum Inhibitory Concentration (MIC) [21]: 0.25 µg/mL
- Minimum Inhibitory Concentration (MIC) [22]: 0.5 µg/mL
- Minimum Inhibitory Concentration (MIC) [23]: ≤0.002 µg/mL
- Minimum Inhibitory Concentration (MIC) [24]: 2 µg/mL
